Measured values from several laboratories, pooled; numbers as filed in NIAID ChemDB.

Shared fields: growth or infection tests; species: Mycobacterium avium

ECn is the concentration giving n% inhibition of infection, replication or growth. Lines come from different laboratories, so protocols vary. A number after MIC or MFC names an inhibition level or a share of isolates. Inhibition is in % at the dose shown (toxicity tests: loss of growth or viability). An empty or dashed field is not shown.

SMILES | strain or isolate | method | conditions | endpoint | tested at | value
O=C(NNC(=O)c1ccncc1)Nc1cc(Cl)cc(Cl)c1 | MY330/88 | broth dilution | 14 d | MIC100 |  | 125 µM
Cc1nc2ccc(F)cn2c1C(=O)NCc1ccc(N2CC(c3ccc(OC(F)(F)F)cc3)C2)c(F)c1 |  | fluorescence |  | inhibition | 0.13 µM | 85%
Cc1ccc(NC(=O)NNC(=O)c2ccncc2)cc1 | MY330/88 | broth dilution | 21 d | MIC100 |  | 32 µM
CCc1nc2cc(F)ccn2c1C(=O)NCc1ccc(N2C[C@H](C)N(c3ccc(OC(F)(F)F)cc3)C[C@H]2C)c(F)c1.Cl |  | fluorescence |  | inhibition | 0.016 µM | 85%
O=C(NNC(=O)c1ccncc1)Nc1ccc(Cl)c(Cl)c1 | MY330/88 | broth dilution | 14 d | MIC100 |  | >125 µM
O=c1[nH]c(=O)n([C@H]2C[C@H](O)[C@@H](CO)O2)cc1/C=C/Br | ATCC 25291 |  |  | inhibition | 50 µg/mL | 0%
NNC(=O)c1ccncc1 | MY330/88 | broth dilution | 21 d | MIC100 |  | >250 µM
O=c1[nH]c(=O)n([C@H]2C[C@H](O)[C@@H](CO)O2)cc1/C=C/I | ATCC 25291 |  |  | inhibition | 50 µg/mL | 0%
Cc1nc2ccc(F)cn2c1C(=O)NCc1ccc(N2CCC(c3ccc(OC(F)(F)F)cc3)CC2)c(F)c1.Cl |  | fluorescence |  | inhibition | 0.079 µM | 85%
Cc1cn([C@@H]2O[C@H](CO)[C@@H](O)[C@H]2F)c(=O)[nH]c1=O | ATCC 25291 |  |  | EC50 |  | >50 µg/mL
Clc1ccc(Nc2nnc(-c3ccncc3)o2)cc1Cl | MY330/88 | broth dilution | 21 d | MIC100 |  | >125 µM
Cc1ccn2c(C(=O)NCc3cc(F)c(N4CCC(c5ccc(OC(F)(F)F)cc5)CC4)c(F)c3)c(C)nc2c1.Cl |  | fluorescence |  | inhibition | 0.068 µM | 85%
O=c1[nH]c(=O)n([C@H]2CC[C@@H](CO)O2)cc1I | ATCC 25291 |  |  | inhibition | 50 µg/mL | 0%
CCc1nc2ccc(Cl)cn2c1C(=O)NCc1ccc(N2CCN(c3ccc(OCC(F)(F)F)cc3)[C@@H](C)C2)c(F)c1 |  | fluorescence |  | inhibition | 0.011 µM | 85%
Cc1cn([C@H]2CC[C@@H](CO)O2)c(=O)[nH]c1=O | ATCC 25291 |  |  | EC50 |  | >50 µg/mL
NNC(=O)c1ccncc1 | 1854-4 |  |  | MBC |  | 80 µg/mL
CCc1nc2ccc(Cl)cn2c1C(=O)NCc1ccc(N2CCN(c3ccc(OC(F)(F)F)cc3)[C@@H](C)C2)c(Cl)c1.Cl |  | fluorescence |  | inhibition | 0.009 µM | 85%
O=c1[nH]c(=O)n([C@H]2C[C@H](O)[C@@H](CO)O2)cc1Br | ATCC 25291 |  |  | EC50 |  | >50 µg/mL

The last 2 rows once more:

SMILES,strain or isolate,method,conditions,endpoint,tested at,value
CCc1nc2ccc(Cl)cn2c1C(=O)NCc1ccc(N2CCN(c3ccc(OC(F)(F)F)cc3)[C@@H](C)C2)c(Cl)c1.Cl,,fluorescence,,inhibition,0.009 µM,85%
O=c1[nH]c(=O)n([C@H]2C[C@H](O)[C@@H](CO)O2)cc1Br,ATCC 25291,,,EC50,,>50 µg/mL